# Measurements as given in PMC6952414 (Nature Communications, 2020).
# System: trypsin
# Assay: Resistance to cleavage by trypsin
# Settings: Supplementary Fig. 3
smiles,measurement,value
CSCC[C@H](N)C(=O)N[C@@H](C)C(=O)N[C@@H](CCCNC(=N)N)C(=O)N[C@@H](CCCNC(=N)N)C(=O)N1CCC[C@H]1C(=O)N[C@H](C(=O)N[C@@H](CC(N)=O)C(=O)N[C@@H](Cc1c[nH]cn1)C(=O)N[C@@H](Cc1ccccc1)C(=O)N[C@@H](C)C(=O)NCCCCCC(=O)NCCCC[C@H](NC(=O)CCCCCNC(=O)[C@H](C)NC(=O)[C@H](Cc1ccccc1)NC(=O)[C@H](Cc1c[nH]cn1)NC(=O)[C@H](CC(N)=O)NC(=O)[C@@H](NC(=O)[C@@H]1CCCN1C(=O)[C@H](CCCNC(=N)N)NC(=O)[C@H](CCCNC(=N)N)NC(=O)[C@H](C)NC(=O)[C@@H](N)CCSC)C(C)C)C(=O)NCCCC[C@H](NC(=O)[C@H](CCCCNC(=O)CCCCCNC(=O)[C@H](C)NC(=O)[C@H](Cc1ccccc1)NC(=O)[C@H](Cc1c[nH]cn1)NC(=O)[C@H](CC(N)=O)NC(=O)[C@@H](NC(=O)[C@@H]1CCCN1C(=O)[C@H](CCCNC(=N)N)NC(=O)[C@H](CCCNC(=N)N)NC(=O)[C@H](C)NC(=O)[C@@H](N)CCSC)C(C)C)NC(=O)CCCCCNC(=O)[C@H](C)NC(=O)[C@H](Cc1ccccc1)NC(=O)[C@H](Cc1c[nH]cn1)NC(=O)[C@H](CC(N)=O)NC(=O)[C@@H](NC(=O)[C@@H]1CCCN1C(=O)[C@H](CCCNC(=N)N)NC(=O)[C@H](CCCNC(=N)N)NC(=O)[C@H](C)NC(=O)[C@@H](N)CCSC)C(C)C)C(N)=O)C(C)C [PVF-tet],resistance to trypsin (in words),easily cleaved by trypsin
